Anti-infective test results gathered from many reports (values: NIAID ChemDB through PubChem).

Common to all: host cell toxicity; cells: MOLT-3; read-out: CC50

Blank or dashed fields: not listed here.

structure	read by	result
C#CCOCc1cn(C2CCON2C(=O)OCc2ccccc2)c(=O)[nH]c1=O	MTS	>1000 µM
CC(C)Nc1nc2cc(Cl)c(Cl)cc2n1[C@H]1O[C@H](C)[C@H](O)[C@@H]1O	ATP	>100 µM
Cc1cc(C=O)cc(C)c1Oc1cc(Oc2c(C)cc(C=O)cc2C)c2ccccc2n1	XTT	2.62 µg/mL
OC[C@H]1CC(n2c(NC3CC3)nc3cc(Cl)c(Cl)cc32)[C@H](O)[C@@H]1O	ATP	>100 µM
NC(=O)c1c(Cl)c(-c2cccnc2)n2c1CCCC2	-	91.4 µM
CCCCC(=O)OC1CC(OC(C)C(C)C(O)C(C)C(O)C(C)C2OC(=O)/C=C/CC(O)CC(O)CC(O)CCC(C)C(O)C[C@@]3(O)O[C@H](CC(O)CC(OC(=O)CC(=O)O)CCCC(O)C4OC4C2C)C[C@H](O)[C@H]3O)OC(C)C1O	-	>100 µg/mL
CC(C)Nc1nc2cc(Cl)c(Cl)cc2n1[C@@H]1O[C@@H](C)[C@@H](O)[C@H]1O	ATP	64 µM
Cc1ccnc2c1NC(=O)c1cccnc1N2C1CC1	MTS	>1000 µM
OC[C@@H]1O[C@@H](n2c(Br)nc3cc(Cl)c(Cl)cc32)[C@H](O)[C@H]1O	ATP	14 µM
CCO[P+](O)(OCC)[C@H]1C[C@H](C[N+]2=CC(F)C(=O)NC2=O)N(C)O1	MTS	>1000 µM
CC(C)Nc1nc2cc(Cl)c(Cl)cc2n1[C@@H]1OC[C@@H](O)[C@H]1O	ATP	>100 µM
COc1ccc(-n2cc(COCc3cn(C4CCON4C(=O)OCc4ccccc4)c(=O)[nH]c3=O)nn2)cc1	MTS	594 µM
Cc1cc(C=O)cc(C)c1Oc1cc(Nc2ccc(C#N)cc2)nc2ccccc12	MTT	11.8 µM
O=C(OCc1ccccc1)N1OCCC1n1cc(COCc2cn(Cc3ccccc3)nn2)c(=O)[nH]c1=O	MTS	552 µM
COc1ccc(OCC2OC2COC(=O)c2ccc(O)c(OC)c2)cc1	MTS / tetrazolium / absorbance	241 µM

Again, the opening 2 rows:

{"structure": "C#CCOCc1cn(C2CCON2C(=O)OCc2ccccc2)c(=O)[nH]c1=O", "read by": "MTS", "result": ">1000 µM"}
{"structure": "CC(C)Nc1nc2cc(Cl)c(Cl)cc2n1[C@H]1O[C@H](C)[C@H](O)[C@@H]1O", "read by": "ATP", "result": ">100 µM"}

Neighbouring rows are from separate reports. CCn: concentration that lowers growth or viability of the cells by n%.